Compound potency records, mixed from different reports. Data source: NIAID ChemDB in PubChem.

MIC bound: limit read from a one-dose screen. ICn is the concentration giving n% inhibition. Rows are shuffled and stem from different studies. Percent inhibition refers to the dose given; in toxicity tests it is the harm to the cells. Blank or dashed fields: not listed here.

compound,cells,strain or isolate,target,tested at,kind,measure,method,species,value
CCOC(=O)c1ccc(N2C(=S)N(C(=O)c3ccccc3)C(=Nc3ccccc3)C2=Nc2ccccc2)cc1,,H37Rv,,12.5 µg/mL,culture,inhibition,BACTEC,Mycobacterium tuberculosis,0%
Fc1ccc(N2CCCCC2)c(NC(=S)c2ccncc2)c1,,,NEK3,10 µM,host protein,inhibition,kinase activity,,6%
Cc1ccc(NC(=O)C(=O)C2C(=O)N(c3ccccc3)N=C2N)cc1C,,H37Rv,,,culture,MIC bound,resazurin,Mycobacterium tuberculosis,>6.25 µg/mL
Cc1cccc(-c2cncc(N3CCN(c4cnccn4)CC3)n2)c1,,,UL97 kinase,,target,IC50,,Cytomegalovirus,<10 µM
CCCCCCCCCN=C(N)N,,H37Rv,,,culture,MIC,,Mycobacterium tuberculosis,25 µg/mL
COc1ccc(N2CCN(c3cncc(-c4cc(C)cc(C)c4)n3)CC2)cc1OC,,,UL97 kinase,10 µM,target,inhibition,,Cytomegalovirus,>15%
Cc1cc(=O)c2ccc3c(ccc4c(=O)cc(C)[nH]c43)c2[nH]1,,H37Rv,,,culture,MIC bound,,Mycobacterium tuberculosis,<6.25 µg/mL
CC(=O)C1CN(c2ccccc2)C(=O)C1=O,,H37Rv,,,culture,MIC,,Mycobacterium tuberculosis,>100 µg/mL
COc1ccc(N2CCN(c3cncc(-c4ccccc4)n3)CC2)cc1,,,UL97 kinase,,target,IC50,,Cytomegalovirus,<100 µM
O=C1NC(=O)C(c2ccccc2)(c2ccccc2)N1,,H37Rv,,,culture,MIC,,Mycobacterium tuberculosis,>100 µg/mL
OCc1ccc(-c2cncc(N3CCN(c4ccc(Cl)c(Cl)c4)CC3)n2)cc1,,,UL97 kinase,1 µM,target,inhibition,,Cytomegalovirus,<50%
CC(Oc1ccc2ccccc2c1)C(=O)O,,H37Rv,,,culture,MIC,,Mycobacterium tuberculosis,>100 µg/mL
Clc1ccc(N2CCN(c3cncc(-c4cccc5ccccc45)n3)CC2)cc1Cl,,,UL97 kinase,10 µM,target,inhibition,,Cytomegalovirus,>15%
C#CCOCC1CN(c2ccccc2)C(=O)O1,,H37Rv,,12.5 µg/mL,culture,inhibition,BACTEC,Mycobacterium tuberculosis,58%
CC(C)(C)c1ccc(C(=O)O)s1,,H37Rv,,,culture,MIC,,Mycobacterium tuberculosis,>100 µg/mL
Cc1ccc(NC(=O)c2ccccc2)cc1Cl,VERO,H37Rv,,,culture,MIC,BACTEC,Mycobacterium tuberculosis,3.13 µg/mL
Fc1ccc(-c2cncc(N3CCN(c4ccccn4)CC3)n2)c(F)c1,,,UL97 kinase,10 µM,target,inhibition,,Cytomegalovirus,>15%
S=C(S)NN1CCCC1,VERO,H37Rv,,,culture,MIC,,Mycobacterium tuberculosis,0.8 µg/mL
Nc1ccc(-c2ccccc2-c2ccccc2)cc1,,H37Rv,,,culture,MIC,,Mycobacterium tuberculosis,>100 µg/mL
CC1(C)CC2(C)OC(=O)c3ccccc3N2C(=S)N1,,H37Rv,,,culture,MIC bound,BACTEC,Mycobacterium tuberculosis,>12.5 µg/mL
c1c[nH]cn1,,H37Rv,,,culture,MIC,,Mycobacterium tuberculosis,>100 µg/mL

The first 3 rows once more:

compound | cells | strain or isolate | target | tested at | kind | measure | method | species | value
CCOC(=O)c1ccc(N2C(=S)N(C(=O)c3ccccc3)C(=Nc3ccccc3)C2=Nc2ccccc2)cc1 |  | H37Rv |  | 12.5 µg/mL | culture | inhibition | BACTEC | Mycobacterium tuberculosis | 0%
Fc1ccc(N2CCCCC2)c(NC(=S)c2ccncc2)c1 |  |  | NEK3 | 10 µM | host protein | inhibition | kinase activity |  | 6%
Cc1ccc(NC(=O)C(=O)C2C(=O)N(c3ccccc3)N=C2N)cc1C |  | H37Rv |  |  | culture | MIC bound | resazurin | Mycobacterium tuberculosis | >6.25 µg/mL